PubChem BioAssay AID1224833, University of Georgia, 2016

Purpose: 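Host factors restraining rotavirus as candidate antiviral genes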 (primary screen)
Cells: monkey MA104 kidney cells
Knock-down reagent: siRNA pool against human genes, 50 nM
Duration: 48 h knock-down before infection; read 24 h after infection
Conditions: infection with rotavirus strain RV3 two days after transfection; infectious dose for this stage not given
Read-out: 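z-score of rotavirus antigen signal per well, from a fluorescent immunoassay, relative to non-targeting control wells on the same plate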
Direction: z-score vs non-targeting control: higher = more rotavirus replication than with non-targeting control
Hit rule: In these data the active calls have z-score vs non-targeting control at about -1 or lower, or at about 1 or higher
Meaning of the calls: active = z-score beyond 1 either way; inactive = z-score within 1 of zero
This is one part, drawn at random, of about 12,000 reagents. About 5,600 of all reagents (46%) were called active. 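Active calls cover z-scores past 1 in both directions, so they include lowered as well as raised rotavirus replication.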 A number with no mark means an inactive call.

GTF2A1L
- z-score vs non-targeting control: -0.749

OR13G1
- z-score vs non-targeting control: 1.47 (active)

NCAN
- z-score vs non-targeting control: -1.77 (active)

SCCPDH
- z-score vs non-targeting control: 1.48 (active)

SCG2
- z-score vs non-targeting control: -0.899

MCU
- z-score vs non-targeting control: -0.89

2 entries from above, arranged by “z-score vs non-targeting control”, low to high.
NCAN
- z-score vs non-targeting control: -1.77 (active)

SCCPDH
- z-score vs non-targeting control: 1.48 (active)

Additional results follow.
KLC4
- z-score vs non-targeting control: -1.01 (active)

LIAS
- z-score vs non-targeting control: -0.667

SOX13
- z-score vs non-targeting control: -0.0637

PDE6D
- z-score vs non-targeting control: -1.43 (active)

TIMELESS
- z-score vs non-targeting control: 0.933

CNTNAP1
- z-score vs non-targeting control: -1.27 (active)

OSBP
- z-score vs non-targeting control: -1.47 (active)

STIMATE
- z-score vs non-targeting control: 1.54 (active)

SLC22A14
- z-score vs non-targeting control: 2.47 (active)

SLC44A1
- z-score vs non-targeting control: -1.45 (active)

CLTCL1
- z-score vs non-targeting control: -0.469

EVI2A
- z-score vs non-targeting control: 0.0453

SLC26A5
- z-score vs non-targeting control: -2.66 (active)
